Pooled drug test results. Numbers come from NIAID ChemDB, via PubChem.

Shared fields: tests in culture; agent: Cryptococcus neoformans

Neighbouring rows are from separate reports.

| smiles | read by | read-out | strain | value |
|---|---|---|---|---|
| CN[C@@H]1[C@H](O[C@@H]2O[C@H](CO)[C@@H](O)[C@H](S(=O)(=O)O)[C@H]2O)[C@@H](O)[C@H](O[C@H]2c3cc(C)c(C(=O)N[C@H](C)C(=O)O)c(O)c3-c3c(cc4c(c3O)C(=O)c3cc(OC)cc(O)c3C4=O)[C@@H]2O)O[C@@H]1C |  | MIC | D49 | 1.6 µg/mL |
| Oc1ccc(O)c(C=Nc2ccccc2O)c1 | broth dilution | MIC | ATCC 28957 | 8 µg/mL |
| CC(C)CC(=O)c1c(O)c(C=O)c(O)c(C=O)c1O |  | EC50 |  | >20 µg/mL |
| Cc1c(C(c2ccccc2)n2ccnc2)cnn1-c1ccccc1 |  | MIC |  | 200 µM |
| COc1c(O)ccc2c(=O)c3c(O)cc4c(c3oc12)C(C)(C)C(C)O4 | broth dilution | MIC |  | 42 µg/mL |
| OC(Cn1cncn1)(Cn1cncn1)c1ccc(F)cc1F |  | MIC80 |  | 4.62 µg/mL |
| Cn1ncc(C(c2ccccc2)n2ccnc2)c1-c1ccccc1 |  | MIC |  | >200 µM |
| CCC(C)/C=C1\SC(=O)N(CC(O)(Cn2nccn2)c2ccc(F)cc2F)C1=O |  | MIC80 |  | 1.23 µg/mL |
| C[C@@H]1CCC2(OC1)OC1CC3C4C[C@H](O)[C@H]5C[C@@H](O)CC[C@]5(C)C4CC(=O)[C@]3(C)C1[C@@H]2C |  | MFC | ATCC 90113 | 10 µg/mL |
| CCOC(=O)c1c(C)nc(NCCCCNc2ccnc3cc(Cl)ccc23)nc1-c1ccc(F)cc1 |  | MIC99 | ATCC 28957 | 1.4 µg/mL |
| CN[C@H]1CC[C@@H](c2ccc(Cl)c(Cl)c2)c2ccccc21 | broth dilution | MFC | JEC21 | 6 µg/mL |
| C[C@H](n1nnnc1CCN1CCN(c2ccc(F)cc2)CC1)[C@](O)(Cn1cncn1)c1ccc(F)cc1F |  | MIC | LA314 | 8 µg/mL |
| CCCc1c(C(c2ccccc2)n2ccnc2)cnn1-c1ccccc1 |  | MIC |  | 66 µM |
| C[C@H](n1nnnc1CCN1CCN(c2ccccc2)CC1)[C@](O)(Cn1cncn1)c1ccc(F)cc1F |  | MIC | LA314 | >8 µg/mL |
| Cc1ccc(/C=C2\SC(=O)N(CC(O)(Cn3nccn3)c3ccc(F)cc3F)C2=O)c(C)c1 |  | MIC80 | CNCYP51 | 8.5 µg/mL |
| Cn1ncc(C(c2ccccc2)n2cncn2)c1-c1ccccc1 |  | MIC |  | >200 µM |
| CCCCCCCCCCCCC/C=C/C1=N[C@H]1C(=O)OC |  | MIC | var. grubii | 4 µg/mL |
| CCNC(=S)N/N=C(\N)c1ccccn1 |  | MIC100 | ATCC 24067A | >416.7 µM |
| CCC(C)n1ncn(-c2ccc(N3CCN(c4ccc(OC[C@H]5CO[C@](Cn6cncn6)(c6ccc(Cl)cc6Cl)O5)cc4)CC3)cc2)c1=O |  | MIC90 | 15 strains | 0.06 µg/mL |
| C[C@H](n1nnc(CCN2CCN(c3ccccc3)CC2)n1)[C@](O)(Cn1cncn1)c1ccc(F)cc1F |  | MIC | LA314 | 8 µg/mL |
| Oc1ccccc1N=Cc1ccc(F)cc1 |  | MIC99 | ATCC 24067 | 4 µg/mL |
| CCCCCCCCCCCCCC#CC1=N[C@H]1C(=O)OC |  | MIC | var. gatti | 4 µg/mL |
| COc1ccc(N2CCN(CCc3nnn([C@@H](C)[C@](O)(Cn4cncn4)c4ccc(F)cc4F)n3)CC2)cc1 |  | MIC | LA314 | >16 µg/mL |
| COc1cc(NC(C)CCCN)c2nc(C(C)(C)C)cc(C)c2c1Oc1cccc(C(F)(F)F)c1 |  | MIC |  | 5 µg/mL |
| O=c1c2cc(O)ccc2oc2cccc(O)c12 | broth dilution | MIC100 |  | >64 µg/mL |
| C[C@H](n1nnc(CCN2CCN(c3ccc([N+](=O)[O-])cc3)CC2)n1)[C@](O)(Cn1cncn1)c1ccc(F)cc1F |  | MIC | LA314 | 4 µg/mL |
| COC(=O)[C@@H]1N=C1/C=C\CCCCCCCCCCCCC(C)(C)C |  | MIC | var. gatti | >64 µg/mL |
| C=C1C(=O)OCC1COC(=O)CCCCC |  | MIC | ATCC90112 | 25 µg/mL |
| CCOC(=O)c1c(C)nc(OCCCNc2ccnc3cc(Cl)ccc23)nc1-c1ccccc1 |  | MIC99 | WP | 5.7 µg/mL |
| COc1cc(C2Oc3ccc4c(=O)c5c(O)cc(O)cc5oc4c3OC2CO)cc(OC)c1O | broth dilution | MIC |  | 44 µg/mL |
| CC(C)CCc1c(O)c(C=O)c(O)c(C=O)c1O |  | EC50 |  | >20 µg/mL |
| O=[N+]([O-])c1ccc(C=Nc2ccccc2O)cc1 | broth dilution | MIC | ATCC 24067 | 8 µg/mL |
| CC(=O)c1c(O)cc(O)c(C=O)c1O |  | EC50 |  | >20 µg/mL |
| CC(C)(C)c1c(C(c2ccccc2)n2cncn2)cnn1-c1ccccc1 |  | MIC |  | >200 µM |
| Oc1ccccc1N=Cc1ccccc1 | broth dilution | MIC | WP | 8 µg/mL |
| CC(C)=CCN=C(NCC=C(C)C)NCC=C(C)C |  | MIC | ATCC 90012 | 250 µg/mL |
| CC[C@@H]([C@H](C)O)n1ncn(-c2ccc(N3CCN(c4ccc(OC[C@@H]5CO[C@@](Cn6cncn6)(c6ccc(F)cc6F)C5)cc4)CC3)cc2)c1=O |  | MIC50 | 10 strains | 0.25 µg/mL |
| CC(=O)c1c(O)c(C)c(O)c(C=O)c1O |  | EC50 |  | >20 µg/mL |
| CC(C)=CCC/C(C)=C/CN(C)C(=N)N(C)C/C=C(\C)CCC=C(C)C |  | MIC | ATCC 90012 | 250 µg/mL |
| Cc1nc(NCCCCNc2ccnc3cc(Cl)ccc23)nc(-c2ccccc2)c1C(=O)OC(C)C |  | MIC99 | LMM 820 | 8 µg/mL |
| N=C(N)c1ccc(OCCCC2CCN(CCCOc3ccc(C(=N)N)cc3)CC2)cc1 |  | MIC | ATCC90112 | 0.0625 µg/mL |
| Oc1ccccc1C=Nc1ccccc1O | broth dilution | MIC | ATCC 62066 | 2 µg/mL |
| CC(C)(C)c1ccc(/C=C2\SC(=O)N(CC(O)(Cn3nccn3)c3ccc(F)cc3F)C2=O)cc1 |  | MIC80 | CNCYP51 | 8.02 µg/mL |
| C[C@H](n1nnnc1CCN1CCN(c2ccc(Cl)cc2)CC1)[C@](O)(Cn1cncn1)c1ccc(F)cc1F |  | MIC | LA314 | 2 µg/mL |
| CCCCCCCCCCCCCCCC1=N[C@H]1C(=O)OC |  | MIC | var. grubii | 2 µg/mL |

Repeating the final 3 entries:

smiles,read by,read-out,strain,value
CC(C)(C)c1ccc(/C=C2\SC(=O)N(CC(O)(Cn3nccn3)c3ccc(F)cc3F)C2=O)cc1,,MIC80,CNCYP51,8.02 µg/mL
C[C@H](n1nnnc1CCN1CCN(c2ccc(Cl)cc2)CC1)[C@](O)(Cn1cncn1)c1ccc(F)cc1F,,MIC,LA314,2 µg/mL
CCCCCCCCCCCCCCCC1=N[C@H]1C(=O)OC,,MIC,var. grubii,2 µg/mL

ECn: concentration that inhibits the pathogen or its effect by n%. An empty or dashed field is not shown. A number after MIC or MFC names an inhibition level or a share of isolates.